In publication PMC4369170 (ACS chemical biology, 2015):

The compounds below were run on pfent1Δ parasites (assay: Efficacy against pfent1Δ parasites). Settings: ratio of IC50 pfent1Δ to IC50 WT Dd2.

Row | Compound | IC50 in pfent1Δ parasites compared to WT Dd2
1 | O=C(Nc1ccc2nc(NC(=O)c3ccco3)sc2c1)c1ccco1 [Compound 1, N,N'-1,3-benzothiazole-2,6-diyldi(2-furamide)] | 3–4 fold
2 | O=C(Nc1ccc(-c2nc3ncccc3o2)cc1)c1ccccc1Br [Compound 2, 2-bromo-N-(4-[1,3]oxazolo[4,5-b]pyridin-2-ylphenyl)benzamide] | 3–4 fold
3 | COc1cc(COc2ccc3c(C)cc(=O)oc3c2)cc(OC)c1OC [Compound 3, 4-methyl-7-[(3,4,5-trimethoxybenzyl)oxy] -2H-chromen-2-one] | 3–4 fold
4 | Cn1cc(C(=O)C(=O)Nc2ccc(C(=O)N3CCCC3)cc2)c2ccccc21 [Compound 5, 2-(1-methyl-1H-indol-3-yl)-2-oxo-N-[4-(pyrrolidin-1-ylcarbonyl)phenyl]acet amide] | similar
